What was measured:
[1] = target: SARS-CoV-2 spike protein of the WA-1 strain live virus (carrying D614G) (SARS-CoV-2, UniProt P0DTC2 14-1273); assay: cell-based or functional assay
[2] = target: SARS-CoV-2 spike protein of the B.1.351 (Beta) strain live virus (SARS-CoV-2); assay: cell-based or functional assay
[3] = target: SARS-CoV-2 spike protein on authentic virus carrying D614G (WA-1 strain) (SARS-CoV-2, UniProt P0DTC2 14-1273); assay: cell-based or functional assay
[4] = target: SARS-CoV-2 spike protein on authentic virus of the B.1.351 (Beta) strain (SARS-CoV-2); assay: cell-based or functional assay
[5] = target: mutant SARS-CoV-2 spike pseudovirus (mutant not specified); assay: cell-based or functional assay
[6] = target: mutant (SARS-CoV-2 spike pseudovirus mutant, not defined); assay: cell-based or functional assay
[7] = target: mutant SARS-CoV-2 spike on pseudovirus (mutant not identified) (SARS-CoV-2); assay: cell-based or functional assay
[8] = target: SARS-CoV-2 spike protein receptor binding domain (isolated RBD) (SARS-CoV-2, UniProt P0DTC2 319-541); assay: SPR (Biacore 8K), IgG1 captured via anti-hFc, RBD as analyte

B1: IMPI-027 (antibody, V domains shown)
VH: QVQLQESGPGLVKPSQTLSLTCTVSGGSISSYGYYWNWIRQHPGKGLEWIGYIYYSGSTYYNPSLKSRVTISVDTSKNQLSLRLNSVSAADTAVYYCARDFGGNSNYFDYWGQGTLVTVSS
VL: AIQLTQSPSSLSASVGDRVTITCRTSQGISSALAWYQQKPGKAPKLLIYDASSLESGVPSRFSGSGSGTDFTLTISSLQPEDFATYYCQQFNSYPLTFGGGTKVEIK
[1]
  Live virus WA-1 strain IC50: 1.82 µg/mL
[2]
  Live virus B.1.351 strain IC50: 5.4 µg/mL

B2: IMPI-033 (antibody, V domains shown)
VH: QVQLQESGPGLVKPSQTLSLTCTVSGGSISSYGYYWSWIRQHPGKGLEWIGYIYYSGSTYYNPSLKSRVTMSVDTSKNQLSLRLNSVSAADTAVYYCARDFGGNSNYFDYWGQGTLVTVSS
VL: AIQLTQSPSSLSASVGDRVTITCRASQGISSALAWYQQKPGKAPNLLIYDASSLESGVPSRFSGSGSGTDFTLTISSLQPEDFATYYCQQFNSSPLTFGGGTKVEIK
[1]
  Live virus WA-1 strain IC50: 3.67 µg/mL
[2]
  Live virus B.1.351 strain IC50: 8.9 µg/mL

B3: IMPI-054 (antibody, V domains shown)
VH: EVQLVESGGGLIQPGGSLRLSCAASGLTVSSNYMSWVRQAPGKGLEWVSIIYSGGSTYYADSVKGRFTISRDNSKNTLYLQMNSLRAEDTAVYYCARLGGYYYYGMDVWGQGTTVTVSS
VL: DIQMTQSPSSLSASVGERVTITCQASQDIRNYLNWYQKKPGKAPKLLIYDSSNLETGVPSRFSGSGSGTDFTFTISSLQPEDIATYYCQQYDNLPITFGQGTRLEIK
[3]
  Live virus WA-1 strain IC50: 0.015 µg/mL

B4: IMPI-055 (antibody, V domains shown)
VH: QVQLVQSGAEVKKPGASVKVSCKASGYTFTSYDINWVRQATGQGLEWMGWMNPNSGNTGYAQKFQGRVTMTRDTSINTAYMELSSLRSEDTAVYFCARGGRYCSDVTCYSGEPFDYWGQGTLVTVSS
VL: EIMLTQSPDFQSVTPKEKVTITCRASQSIGSSLHWYQQKPDQSPKLLIKFASQSISGVPSRFSGSGSGTDFTLTINSLEAEDAAAYYCHQSSSLPHTFGPGTKVEIK
[3]
  Live virus WA-1 strain IC50: 0.00032 µg/mL
[4]
  Live virus B.1.351 strain IC50: 25 µg/mL

B5: IMPI-056 (antibody, V domains shown)
VH: EVQLVESGGGLIQPGGSLRLSCAASGLTVSSNYMNWVRQAPGKKLEWVSVIYSGGSTFYADSVRGRFTISRDNSKNTLFLQMNSLRAEDSAVYYCARDLGPYGVDVWGQGTTVTVSS
VL: DIQLTQSPSFLSASVGDRVTITCWASQGISSYLAWYQQKPGKAPKLLIYAASTLQSGVPSRFSGSGSGTEFTLTISSLQPEDFATYYCQQLNSYPLTFGQGTRLEIK
[4]
  Live virus B.1.351 strain IC50: 25 µg/mL

B6: IMPI-059 (antibody, V domains shown)
VH: EVQLVESGGGLIQPGGSLRLSCAASGFTVSSIYMSWVRQAPGKGLEWVSIIYSRGSTDYADSVKGRFTISRDISKNTLYLQMNSLRAEDTAVYYCARDGTMVRGVHAFDIWGQGTMVTVSS
VL: DIQMTQSPPSLSASIGDRVTITCQASQDISNYLNWYQQKPGKAPKLLIYDASNLETGVPSRFSGSGSGTDFTLTISNLQPEDIVTYYCQQYDNLPSSFGQGTKLEIK
[3]
  Live virus WA-1 strain IC50: 0.00032 µg/mL
[4]
  Live virus B.1.351 strain IC50: 3.94 µg/mL

B7: IMPI-060 (antibody, V domains shown)
VH: EVQLVESGGGLIQPGGSLRLSCAASGVTVSSNYMSWVRQAPGKGLEWVSVIYSGGSTFYADSVKGRFTISRDNSKNTLYLQMNSLRAEDTAVYYCARDLSYYGMDVWGQGTTVTVSS
VL: DIQLTQSPSFLSASVGDRVTITCWASQGISSYLAWYQQKPGKAPKLLIYAASTLQSGVPSKFSGSGSGTEFTLTISSLQPEDFATYYCQQLNSYPSSFGQGTKLEIK
[3]
  Live virus WA-1 strain IC50: 0.171 µg/mL

B8: IMPI-067 (antibody, V domains shown)
VH: QVQLVESGGGVVQPGTSLRLSCAASGFTFNSFGMHWVRQAPGKGLEWVAVISYDGSSKYYADSVKGRFTISRDNSKNTLYLQMNSLRAEDTAVYYCAKDEGDYDDYYYGMDVWGQGTTVTVSS
VL: EIVLTQSPGSLSLSPGERATLSCRASQSLSSRYLAWYHQKPGQAPRLLIYGASSRATGIPDRFSGSGSGTDFTLTISGLEPEDFAVYYCQQYGNSITFGGGTKVEIK
[4]
  Live virus B.1.351 strain IC50: 25 µg/mL

B9: IMPI-068 (antibody, V domains shown)
VH: QVQLVESGGDVVQPGRSLRLSCAASGFTFSRYGMHWVRQAPGKGLEWVAVISYDGSDKYYADSVKGRFTISRDNSKNTLYLQMNSLRAEDTAVYYCAKQLPLYYYYYGMDVWGQGTTVTVSS
VL: AIQLTQSPSSLSASVGDRVTITCRASQGISSALAWYQQKPGKAPNLLIYDASSLESGVPSRFSGSGSGTDFTLTISSLQPEDFATYYCQQFNIYPHTFGPGTKVDIK
[4]
  Live virus B.1.351 strain IC50: 4.51 µg/mL

B10: YANG-1112 (antibody, V domains shown)
VH: QITLKESGPTLVKPTQTLTLTCTFSGFSLSTGGVAVGWIRQPPGKALEWLAIIYWDDDKRYSPSLKSRLTITKDTSKNQVVLTMTNMDPVDTATYYCAHWGKDSFDIWGQGTMVTVSS
VL: SYELTQPPSVSVSPGQTARITCSGDALPRKYAYWYQQKSGQAPVLVIYEDNNRPSGIPERFSGSSSGTTATLTVSGAQVEDEADYYCYSTDTSGYVVFGGGTKLTVL
[5]
  PV IC50 against mutant: 0.34 nM

B11: YANG-1118 (antibody, V domains shown)
VH: EVQLVESGGGLVKPGGSLRLSCAASGFTFSSYALNWVRQAPGKGLEWVSSISTGSSYIFYADSVKGRFTISRDNAKHSLSLQMNSLRAEDTAVYYCAKTGDLPFFDYWGQGTLVTVSS
VL: QSALTQPASVSGSPGQSITISCTGTSSDVGRYNYVSWYQQHPGKAPKLMIYEVSNRPSGVSNRFSGSKSGNTASLTISGLQAEDEADYYCISYTSSSTMVFGGGTKLTVL
[5]
  PV IC50 against mutant: 2.76 nM

B12: YANG-2108 (antibody, V domains shown)
VH: QVQLQESGPGQVKPSGTLSLTCAVSGGSIRSSNWWIWVRQPPGKGLEWIGEIYHGGNTNYSPSLKSRVSISVDKSKNHFSLNLTSVTAADTAVYYCARALYDVGGVFDIWGQGTMVTVSS
VL: QSALTQPASVSGSPGQSITISCTGSSSDVGGYNYVSWYQQHPGKAPKLMIYDVSERPSGVSNRFSGSKSGNTASLTISGLQAEDEGDYYCCSYAANSNVVFGGGTKLSVL
[6]
  PV IC50 against mutant: 0.23 nM

B13: YANG-2111 (antibody, V domains shown)
VH: GVQLVESGGGLVQPGRSLRLSCAASGFTFDDYALHWVRQVPGKGLEWVSSISWNSDDLGYADSVEGRFTISRDNAKNSLYLQMSSLRTEDTALYYCVKDTRAHYDILAGYRGLDSWGQGTLVTVSS
VL: DIVMTQSPLSLPVTPGEPASISCRSTQSLLHSNGYNFLDWYLQKPGQSPQLLIYLGSNRASGVPDRFSGSGSGTDFSLKISRVEAEDIGIYYCIQGLQTPITFGQGTRLEIK
[6]
  PV IC50 against mutant: 1 nM

B14: YANG-2203 (antibody, V domains shown)
VH: QVQLVQSGAEVKQPGASVKVSCRASGYALTSFYVHWVRQAPGQGLEWMGIIKPSGGDTIYAQNLQGRVTMTRDTSTNTFYVELSSLRSEDTALYYCAISGNTRAFEIWGQGTMVTVSL
VL: QSVLTQPPSVSAAPGQKVTISCSGSSSNIGNNFVSWYQQLPGMVPKLLIYANNKRPSGIPDRFSGSRSGTSATLGITGLQTGDEADYYCGTWDSSRSAVLFGGGTKMTVL
[6]
  PV IC50 against mutant: 32.5 nM

B15: YANG-2204 (antibody, V domains shown)
VH: QMQLVQSGAEVKKPGASVKFSCKTSGYTFTNYYMVWVRQAPGQGLEWMGIIKPSGGNTIYAQKFQGRVTMTRDTSTNTVYMDLTSLRSEDTAVYYCARTGDRAFDVWGQGTMVTVSS
VL: QSVLTQPPSVSAAPGQKVTISCSGSSSNIGNNYVSWYQQLPGTAPKLLIYDNNKRPSGIPDRFSGSKSGTSATLGITGLQTGDEADYYCGTWDSSLGAGVFGGGTKLTVL
[6]
  PV IC50 against mutant: 8.83 nM

B16: YANG-2207 (antibody, V domains shown)
VH: QMQLVQSGAEVKKPGASVKISCKTSGYTFTNYYMVWVRQAPGQGLEWMGIIKPSGGNTIYAQKFQGRVTMTRDTSTNTVYLDLSSLRSEDTAVYYCARTGNRAFDVWGHGTMVTVSS
VL: QSVLTQPPSVSAAPGQKVTISCSGSSSNIGNNFVSWYQQFPGTAPKLLIYDNNKRPSGIPDRFSGSKSGTSATLGITGLQTGDEADYYCGTWDSSLGAGVFGGGTKLTVL
[7]
  PV IC50 against mutant: 32.3 nM

B17: IMPI-032 (antibody, V domains shown)
VH: QVQLQESGPGLVKPSGTLSLTCAVSGGSISSNKWWSWVRQPPGKGLEWIGEIDHSGSTMYNPSLKSRVTISVDKSKNQFSLKLNSVTAADTAVYYCTGEGYNWNYWGQGTRVTVSS
VL: DVVMTQSPLSLPVTLGQTASISCRSSQSLLYTDGNTYLSWFQQRPGQSPRRLIYKVSKWESGVPDRFSGSGSGTDFTLKISRVEAEDVGIYYCMQGTHWPLTFGGGTKVEIK
[8]
  binding result: no binding (tested: up to 100 nM RBD)

B18: IMPI-022 (antibody, V domains shown)
VH: EVQLVESGGGLVQPGRSLRLSCAASGFTFDDYAMHWVRQAPGKGLEWVSGITWNSGSIGYADSVKGRFTISRDNAKNSLYLHMNSLRVEDTALYYCAKDLQGDYYYYGVDVWGQGTTVTVSS
VL: AIQLTQSPSSLSASVGDRVTITCRASQGISSALAWYQQKPGKAPKLLLYDASSLVSGVPSRFSGSRSGTDFTLTISSLQPEDFATYYCQQFISYPLTFGGGTRVEIK
[8]
  binding result: no binding (tested: up to 100 nM RBD)

B19: IMPI-063 (antibody, V domains shown)
VH: EVQLVESGGGVVRPGGSLRLSCAASGFTFDDYGMSWVRQAPGKGLEWVSGIYWNGGSTGYADSVKGRFTISRDNAKNSLYLQMNSLRAEDMALYYCARGVGATDYWGQGTLVTVSS
VL: EIVLTQSPGTLSLSSGERATLACRASESVRGSFLAWYQQKPGQAPRLLIYGASRRATGIPDRFSGSGSGTDFTLTISRLEPEDFAVYYCQQYGNSPMCSFGQGTKLEIK
[8]
  binding result: no binding (tested: up to 100 nM RBD)

— US20250026813A1, “Antibodies against sars-cov-2 and uses thereof” (published 2025)
